Laboratory results taken from publication PMC1361355, “Two Key Residues in EphrinB3 Are Critical for Its Use as an Alternative Receptor for Nipah Virus” (2006).
Like-named read-outs stand apart in the source and are kept apart here.

Tests used:
[1] = molecular target: soluble EphB3 (EphB3-Fc) (UniProt P54753); experiment: flow cytometry on cells; conditions: 10 μg/ml EphB3-Fc, read off a plot
[2] = molecular target: soluble EphB3 (EphB3-Fc) (UniProt P54753)
[3] = molecular target: human ephrinB1 stably expressed on CHO-pgsA745 cells (CHO-B1) (human) (UniProt P98172)
[4] = molecular target: human ephrinB3 stably expressed on CHO-pgsA745 cells (CHO-B3) (human) (UniProt Q15768)

## human ephrinB1 stably expressed on CHO-pgsA745 cells (CHO-B1) (from UniProt P98172) Y→L; M→W (G–H loop Y–M of ephrinB1; positions not printed)
[1]; parent: est. 69
  response: 62%

## human ephrinB2 stably expressed on CHO-pgsA745 cells (CHO-B2) (from UniProt P52799) L124Y; W125M
[1]; parent: est. 47
  response: 50%

## human ephrinB3 stably expressed on CHO-pgsA745 cells (CHO-B3) (from UniProt Q15768) L124Y; W125M
[2]
  response: 32%

## soluble EphB3 (EphB3-Fc) (from UniProt P54753 34-559)
[3]
  percent of cells positive for binding: 68%
[4]
  percent of cells positive for binding: 47%
